The results in this text go back to publication PMC6684085, “Intragenic antimicrobial peptides (IAPs) from human proteins with potent antimicrobial and anti-inflammatory activity” (PLoS ONE, 2019).

The series can be described thus: Far-UV circular dichroism, percent helicity. The series is classed as physicochemical. The conditions noted are these: CD, room temperature, [θ]222, method of Chen et al.; for % Helicity Buffer: 40 μM peptide in phosphate buffer.

Ends that are not written are not given here.

LFNNYITAALKLLEKLYKV-NH2 [Hs04]: the “% Helicity Buffer” value was found to be 35.6%. The “% Helicity Buffer” value (listed as 04) is reported as approximately 30%. The “% Helicity 2:1 DMPC:PG” value (40 μM peptide, 50-fold molar excess (2 mM) 2:1 DMPC:DMPG LUVs) is 91.3%. The “%Helicity DMPC” value (40 μM peptide, 50-fold molar excess (2 mM) DMPC LUVs) was found to be 50.8%.
